Anti-infective test results gathered from many reports (values: NIAID ChemDB through PubChem).

Shared fields: whole-cell or culture tests; organism: Hepatitis B virus; measure: EC50

ECn is the concentration giving n% inhibition of infection, replication or growth. a–b is a range or a potency band. Lines come from different laboratories, so protocols vary.

structure	cells	read by	result
Cn1cc(S(=O)(=O)NC2CCN(C(=O)C(=O)NC3COC3)CC2(F)F)c(F)c1C(=O)Nc1ccc(F)c(F)c1	HepAD38 cells	PCR	<0.1 µM
O=C(c1ccc(Br)c(Cl)c1)N1CCn2c(c3n(c2=O)C[C@H](CO)CN(Cc2ccccc2)C3=O)C1	HepG2.117	PCR	0.1–0.5 µM
Cn1nc2cc(NS(=O)(=O)C3CC3)cnc2c1C(=O)Nc1ccc(F)c(Cl)c1	HepAD38	PCR	>1000 µM
C#C[C@@H](NC(=O)C(=O)c1c(C)c(C(=O)Nc2ccc(F)c(C#N)c2)n(C)c1C)C(C)(C)C	HepG2.2.15	PCR	<0.001 µM
CNS(=O)(=O)N1CC[C@@H](NS(=O)(=O)c2cn(C)c(C(=O)Nc3cc(F)c(F)c(F)c3)c2F)C1	HepAD38 cells	PCR	<0.1 µM
C#C[C@@H](NC(=O)C(=O)c1c(C)c(C(=O)Nc2ccc(F)c(C#N)c2)n(C)c1C)C1CC1	HepG2.2.15	PCR	<0.001 µM
Cn1nc2cc(NS(=O)(=O)c3cnn(-c4ccncc4)c3)ccc2c1C(=O)Nc1ccc(F)c(Cl)c1	HepAD38	PCR	<100 µM
CCNC(=O)C(=O)N1CC[C@@H](NS(=O)(=O)c2cn(C)c(C(=O)Nc3ccc(F)c(F)c3)c2F)C(F)(F)C1	HepAD38 cells	PCR	<0.1 µM
O=C(O)COc1ccc(-n2c(C(=O)NCc3ccccc3)c3n(c2=O)CCN(C(=O)c2ccc(Br)c(Cl)c2)C3)cc1	HepG2.117	PCR	>5 µM
Cn1nc2cc(NS(=O)(=O)c3cnn(CCO)c3)ccc2c1C(=O)Nc1ccc(F)c(Cl)c1	HepAD38	PCR	100–1000 µM
C#C[C@@](C)(CO)NC(=O)C(=O)c1c(C)c(C(=O)Nc2ccc(F)c(C#N)c2)n(C)c1C	HepG2.2.15	PCR	0.001–0.0099 µM
O=C(NCc1ccccc1)c1c2n(c(=O)n1-c1ccccc1)CCN(C(=O)c1ccc(Br)c(Cl)c1)C2	HepG2.117	PCR	0.5–5 µM
C#CCNC(=O)C(=O)c1cc(C(=O)Nc2ccc(F)c(C#N)c2)n(C)c1	HepG2.2.15	PCR	>1 µM
Cn1cc(S(=O)(=O)CNc2ccc3c(C(=O)Nc4ccc(F)c(Cl)c4)n(C)nc3c2)cn1	HepAD38	PCR	100–1000 µM
O=C(NCc1ccccc1-c1ncco1)c1c2n(c(=O)n1-c1ccc(OC3CC3)cc1)CCN(C(=O)c1ccc(Br)c(Cl)c1)C2	HepG2.117	PCR	<0.1 µM
Cn1nc2cc(NS(=O)(=O)NC(c3ccccn3)C(F)(F)F)ccc2c1C(=O)Nc1ccc(F)c(Cl)c1	HepAD38	PCR	>1000 µM
Cn1cc(S(=O)(=O)N[C@@H]2CCN(S(=O)(=O)/C=C/c3ccccc3)C2)c(F)c1C(=O)Nc1ccc(F)c(F)c1	HepAD38 cells	PCR	0.1–0.3 µM
O=C(NCc1ccccc1)c1c2n(c(=O)n1-c1ccc(N3CCCC3=O)cc1)CCN(C(=O)c1ccc(Br)c(Cl)c1)C2	HepG2.117	PCR	0.1–0.5 µM
Cn1nc2cc(NS(=O)(=O)c3cnn(CC4CN(S(C)(=O)=O)C4)c3)ccc2c1C(=O)Nc1ccc(F)c(Cl)c1	HepAD38	PCR	>1000 µM
CC(C)Oc1ccc(-n2c(C(=O)NCc3ccc(C(F)F)cc3)c3n(c2=O)CCN(C(=O)c2ccc(Br)c(Cl)c2)C3)cc1	HepG2.117	PCR	0.1–0.5 µM
Cn1nc2cc(NS(=O)(=O)c3cnn(CC4CC4)c3)ccc2c1C(=O)Nc1ccc(F)c(Cl)c1	HepAD38	PCR / entry	<100 µM

For reference, 3 entries again:

{"structure": "Cn1cc(S(=O)(=O)NC2CCN(C(=O)C(=O)NC3COC3)CC2(F)F)c(F)c1C(=O)Nc1ccc(F)c(F)c1", "cells": "HepAD38 cells", "read by": "PCR", "result": "<0.1 µM"}
{"structure": "Cn1nc2cc(NS(=O)(=O)NC(c3ccccn3)C(F)(F)F)ccc2c1C(=O)Nc1ccc(F)c(Cl)c1", "cells": "HepAD38", "read by": "PCR", "result": ">1000 µM"}
{"structure": "CC(C)Oc1ccc(-n2c(C(=O)NCc3ccc(C(F)F)cc3)c3n(c2=O)CCN(C(=O)c2ccc(Br)c(Cl)c2)C3)cc1", "cells": "HepG2.117", "read by": "PCR", "result": "0.1–0.5 µM"}